Pooled drug test results. Numbers come from NIAID ChemDB, via PubChem.

Common to all: whole-cell or culture tests

An empty or dashed field is not shown. A number after MIC or MFC names an inhibition level or a share of isolates. Rows are shuffled and stem from different studies.

{"SMILES": "CO[C@H]1/C=C/O[C@@]2(C)Oc3c(C)c(O)c4c(O)c(c5c(c4c3C2=O)NC2(CCN(CC(C)C)CC2)N=5)=NC(=O)/C(C)=C\\C=C\\[C@H](C)[C@H](O)[C@@H](C)[C@@H](O)[C@@H](C)[C@H](OC(C)=O)[C@@H]1C", "species": "Mycobacterium avium intracellulare", "strain": "N-486 (HIV-)", "endpoint": "MIC", "result": "0.25 µg/mL"}
{"SMILES": "CCCCCCCCCCCCN(C(=O)Nc1ccc(F)cc1)[C@@H](CC(=O)OCC)C1O[C@@H]2OC(C)(C)O[C@@H]2[C@H]1Oc1ccccc1", "species": "Mycobacterium aurum", "endpoint": "MIC", "result": ">25 µg/mL"}
{"SMILES": "CO[C@@]1(NC(=O)CCCC(N)C(=O)O)C(=O)N2C(C(=O)O)=C(COC(C)=O)CSC21", "species": "Mycobacterium fortuitum", "strain": "1059", "endpoint": "MIC", "result": ">100 µg/mL"}
{"SMILES": "Cc1c(OCC(F)(F)F)ccnc1CSc1nc2ccccc2[nH]1", "read by": "resazurin", "species": "Mycobacterium bolletii", "strain": "1999-0888", "endpoint": "MIC90", "result": ">100 µM"}
{"SMILES": "C[C@@H]1CN(c2c(F)c(N)c3c(=O)c(C(=O)O)cn(C4CC4)c3c2F)C[C@H](C)N1", "species": "Mycobacterium avium intracellulare", "strain": "N-897 (HIV-)", "endpoint": "MIC", "result": "4 µg/mL"}
{"SMILES": "CC[C@H]1OC(=O)[C@H](C)[C@@H](OC2C[C@@](C)(OC)[C@@H](O)[C@H](C)O2)[C@H](C)[C@@H](O[C@@H]2O[C@H](C)C[C@H](N(C)C)[C@H]2O)C(C)(O)C[C@@H](C)/C(=N\\OCCCc2ccccc2)[C@H](C)[C@@H](O)[C@]1(C)O", "species": "Mycobacterium avium complex", "strain": "20092 (clarithromycin-resistant)", "endpoint": "MIC", "result": "12.5 µg/mL"}
{"SMILES": "Cc1ccc2oc(=O)n(-c3ccc(Cl)cc3)c(=S)c2c1", "conditions": "21 d", "species": "Mycobacterium kansasii", "strain": "6509/96", "endpoint": "MIC", "result": "4 µM"}
{"SMILES": "CO[C@@]1(NC(=O)Cc2ccccc2)C(=O)N2C(C(=O)O)=C(COC(C)=O)CSC21", "species": "Mycobacterium fortuitum", "strain": "1004-8", "endpoint": "MIC", "result": "50 µg/mL"}
{"SMILES": "CCOC(=O)C[C@@H](C1O[C@@H]2OC(C)(C)O[C@@H]2[C@H]1Oc1ccccc1)N(C(=O)NCc1ccccc1)C1CC1", "species": "Mycobacterium aurum", "endpoint": "MIC", "result": ">25 µg/mL"}
{"SMILES": "CCCO/N=C1\\[C@H](C)CC(C)(O)[C@H](O[C@@H]2O[C@H](C)C[C@H](N(C)C)[C@H]2O)[C@@H](C)[C@H](OC2C[C@@](C)(OC)[C@@H](O)[C@H](C)O2)[C@@H](C)C(=O)O[C@H](CC)[C@@](C)(O)[C@H](O)[C@H]1C", "species": "Mycobacterium avium complex", "strain": "20096 (clarithromycin-resistant)", "endpoint": "MIC", "result": ">50 µg/mL"}
{"SMILES": "C[C@@H](O)[C@H]1C(=O)N2C(C(=O)O)=C(SCCN=CN)C[C@H]12", "species": "Mycobacterium fortuitum", "strain": "1049", "endpoint": "MIC", "result": "6.25 µg/mL"}
{"SMILES": "CO[C@@H]1C2OC(C)(C)OC2OC1[C@@H]1CC(=O)N(c2ccc(Cl)cc2)C(=O)N1C1CC1", "species": "Mycobacterium aurum", "endpoint": "MIC", "result": ">25 µg/mL"}
{"SMILES": "COc1ccc2oc(=S)n(-c3ccc(C)cc3)c(=S)c2c1", "conditions": "14 d", "species": "Mycobacterium kansasii", "strain": "My 235/80", "endpoint": "MIC", "result": "16 µM"}
{"SMILES": "CO[C@H]1/C=C/O[C@@]2(C)Oc3c(C)c(O)c4c(=O)c(c5oc6cc(N7CCN(CC(C)C)CC7)cc(=O)c6nc5c4c3=C2O)NC(=O)/C(C)=C\\C=C\\[C@H](C)[C@H](O)[C@@H](C)[C@@H](O)[C@@H](C)[C@H](OC(C)=O)[C@@H]1C", "species": "Mycobacterium avium complex", "strain": "N-319 (HIV-)", "endpoint": "MIC", "result": "0.0313 µg/mL"}
{"SMILES": "COc1ccc2oc(=O)n(-c3ccc(Br)cc3)c(=S)c2c1", "conditions": "14 d", "species": "Mycobacterium kansasii", "strain": "My 235/80", "endpoint": "MIC", "result": "32 µM"}
{"SMILES": "CC[C@H]1OC(=O)[C@H](C)[C@@H](OC(=O)CCCCCc2ccccc2)[C@H](C)[C@@H](O[C@@H]2O[C@H](C)C[C@H](N(C)C)[C@H]2O)C(C)(O)C[C@@H](C)/C(=N\\OCCCOc2ccccc2)[C@H](C)[C@@H](O)[C@]1(C)O", "species": "Mycobacterium avium complex", "strain": "20096 (clarithromycin-resistant)", "endpoint": "MIC", "result": "25 µg/mL"}
{"SMILES": "CO[C@H]1/C=C/O[C@@]2(C)Oc3c(C)c(O)c4c(O)c(c5c(c4c3C2=O)NC2(CCN(CC(C)C)CC2)N=5)=NC(=O)/C(C)=C\\C=C\\[C@H](C)[C@H](O)[C@@H](C)[C@@H](O)[C@@H](C)[C@H](OC(C)=O)[C@@H]1C", "species": "Mycobacterium avium intracellulare", "strain": "12-Feb", "endpoint": "MIC", "result": "0.125 µg/mL"}
{"SMILES": "Fc1ccc2oc(=S)n(-c3cccc(Cl)c3)c(=S)c2c1", "conditions": "21 d", "species": "Mycobacterium kansasii", "strain": "6509/96", "endpoint": "MIC", "result": "2 µM"}
{"SMILES": "CC[C@H]1OC(=O)[C@H](C)[C@@H](OC2C[C@@](C)(OC)[C@@H](O)[C@H](C)O2)[C@H](C)[C@@H](O[C@@H]2O[C@H](C)C[C@H](N(C)C)[C@H]2O)C(C)(O)C[C@@H](C)/C(=N\\OCc2ccccc2)[C@H](C)[C@@H](O)[C@]1(C)O", "species": "Mycobacterium avium complex", "strain": "20092 (clarithromycin-resistant)", "endpoint": "MIC", "result": ">50 µg/mL"}
{"SMILES": "CC[C@H]1OC(=O)[C@H](C)[C@@H](O[C@H]2C[C@@](C)(OC)[C@@H](O)[C@H](C)O2)[C@H](C)[C@@H](O[C@@H]2O[C@H](C)C[C@H](N(C)C)[C@H]2O)[C@](C)(OC)C[C@@H](C)C(=O)[C@H](C)[C@@H](O)[C@]1(C)O", "species": "Mycobacterium avium complex", "strain": "N-238 (HIV-)", "endpoint": "MIC", "result": "4 µg/mL"}
{"SMILES": "CCCCCCCCCCCCNNC(=O)O[C@H]1[C@H](O[C@@H]2[C@@H](C)[C@H](O[C@H]3C[C@@](C)(OC)[C@@H](OC(C)=O)[C@H](C)O3)[C@@H](C)C(=O)O[C@H](CC)[C@@](C)(O)[C@H](O)[C@@H](C)/C(=N/OCCCC3CCCCC3)[C@H](C)CC2(C)O)O[C@H](C)C[C@@H]1N(C)C", "species": "Mycobacterium avium complex", "strain": "20039 (clarithromycin-susceptible)", "endpoint": "MIC", "result": "50 µg/mL"}
{"SMILES": "CO[C@@]1(NC(=O)CSCC#N)C(=O)N2C(C(=O)O)=C(CSc3nnnn3C)CS[C@@H]21", "species": "Mycobacterium fortuitum", "strain": "4-May", "endpoint": "MIC", "result": "6.25 µg/mL"}
{"SMILES": "CC[C@H]1OC(=O)[C@H](C)[C@@H](O[C@H]2C[C@@](C)(OC)[C@@H](OC(C)=O)[C@H](C)O2)[C@H](C)[C@@H](O[C@@H]2O[C@H](C)C[C@H](N(C)C)[C@H]2OC(=O)NNCc2ccncc2)C(C)(O)C[C@@H](C)/C(=N\\OCCCC2CCCCC2)[C@H](C)[C@@H](O)[C@]1(C)O", "species": "Mycobacterium avium complex", "strain": "20092 (clarithromycin-resistant)", "endpoint": "MIC", "result": "0.78 µg/mL"}
{"SMILES": "Cc1ccc2oc(=S)n(-c3ccc(Cl)cc3)c(=S)c2c1", "conditions": "14 d", "species": "Mycobacterium kansasii", "strain": "6509/96", "endpoint": "MIC", "result": "4 µM"}
{"SMILES": "CCC(=O)O[C@H]1[C@H](C)OC(O[C@H]2[C@H](C)[C@@H](O[C@@H]3O[C@H](C)C[C@H](N(C)C)[C@H]3O)C(C)(O)C[C@@H](C)/C(=N\\OCCCOc3ccccc3)[C@H](C)[C@@H](O)[C@](C)(O)[C@@H](CC)OC(=O)[C@@H]2C)C[C@@]1(C)OC", "species": "Mycobacterium avium complex", "strain": "20096 (clarithromycin-resistant)", "endpoint": "MIC", "result": "0.78 µg/mL"}
{"SMILES": "Cc1ccc2oc(=S)n(-c3ccc(Br)cc3)c(=S)c2c1", "conditions": "14 d", "species": "Mycobacterium kansasii", "strain": "6509/96", "endpoint": "MIC", "result": "4 µM"}
{"SMILES": "CCNNC(=O)O[C@H]1[C@H](O[C@@H]2[C@@H](C)[C@H](O[C@H]3C[C@@](C)(OC)[C@@H](OC(C)=O)[C@H](C)O3)[C@@H](C)C(=O)O[C@H](CC)[C@@](C)(O)[C@H](O)[C@@H](C)/C(=N/OCCCC3CCCCC3)[C@H](C)CC2(C)O)O[C@H](C)C[C@@H]1N(C)C", "species": "Mycobacterium avium complex", "strain": "20039 (clarithromycin-susceptible)", "endpoint": "MIC", "result": "1.56 µg/mL"}
{"SMILES": "CO[C@@]1(NC(=O)Cc2ccccc2)C(=O)N2C(C(=O)[O-])=C(CSc3nnc(C)s3)CSC21", "species": "Mycobacterium fortuitum", "strain": "1004-8", "endpoint": "MIC", "result": "100 µg/mL"}

Repeating the final 4 entries:

SMILES | read by | conditions | species | strain | endpoint | result
CCC(=O)O[C@H]1[C@H](C)OC(O[C@H]2[C@H](C)[C@@H](O[C@@H]3O[C@H](C)C[C@H](N(C)C)[C@H]3O)C(C)(O)C[C@@H](C)/C(=N\OCCCOc3ccccc3)[C@H](C)[C@@H](O)[C@](C)(O)[C@@H](CC)OC(=O)[C@@H]2C)C[C@@]1(C)OC |  |  | Mycobacterium avium complex | 20096 (clarithromycin-resistant) | MIC | 0.78 µg/mL
Cc1ccc2oc(=S)n(-c3ccc(Br)cc3)c(=S)c2c1 |  | 14 d | Mycobacterium kansasii | 6509/96 | MIC | 4 µM
CCNNC(=O)O[C@H]1[C@H](O[C@@H]2[C@@H](C)[C@H](O[C@H]3C[C@@](C)(OC)[C@@H](OC(C)=O)[C@H](C)O3)[C@@H](C)C(=O)O[C@H](CC)[C@@](C)(O)[C@H](O)[C@@H](C)/C(=N/OCCCC3CCCCC3)[C@H](C)CC2(C)O)O[C@H](C)C[C@@H]1N(C)C |  |  | Mycobacterium avium complex | 20039 (clarithromycin-susceptible) | MIC | 1.56 µg/mL
CO[C@@]1(NC(=O)Cc2ccccc2)C(=O)N2C(C(=O)[O-])=C(CSc3nnc(C)s3)CSC21 |  |  | Mycobacterium fortuitum | 1004-8 | MIC | 100 µg/mL